Results of unrelated studies side by side (data: NIAID ChemDB).

Common to all: tests in culture; organism: Mycobacterium tuberculosis

An empty or dashed field is not shown. MIC bound comes from a single tested concentration. a–b is a range or a potency band. A number after MIC or MFC names an inhibition level or a share of isolates. Inhibition is in % at the dose shown (toxicity tests: loss of growth or viability). Rows are shuffled and stem from different studies.

structure | strain | mutations | method | measure | dose | result
Cc1cc2nc3c(nc2cc1C)C1CC(Br)CCC1N3 | H37Rv |  | BACTEC | MIC bound |  | >12.5 µg/mL
Cc1ccc2c(c1)[n+]([O-])c(N)c(C#N)[n+]2[O-] | H37Rv (ATCC 27294) |  | resazurin | MIC |  | 156.3 µM
O=C1c2cc(OC(F)(F)F)ccc2-n2c1nc1ccncc1c2=O | H37Rv |  |  | MIC |  | 0.008 µg/mL
Nc1ccc(C(=O)OCc2ccccc2)c(O)c1 | H37Rv (streptomycin-resistant) |  |  | MIC |  | 2.5 µg/mL
O=Nc1c(O)cc(Nc2cccnc2)c2ccccc12 | H37Rv |  | BACTEC | inhibition | 12.5 µg/mL | 51%
OCc1cn(Cc2ccccc2Cl)cc1-c1ccccc1 | CIP103471 |  |  | MIC |  | 8 µg/mL
CC1C(=O)N(C)c2ccc(C(=O)CN3CCN(c4noc5cccc(Cl)c45)CC3)cc21 | H37Rv |  | visual reading / absorbance | MIC |  | 6.25 µg/mL
O=C(NN=Cc1ccc(Cl)cc1)c1ccc(-n2cc(-c3ccccc3)nn2)cc1O | H37Rv |  | resazurin | MIC |  | 6.25 µg/mL
CC(C)(C)c1cnc(C(=O)/C=C/c2ccc(Cl)cc2)cn1 | H37Rv |  | absorbance | MIC |  | >50 µg/mL
Cc1ccc(-n2c(=O)oc3ccc(Br)cc3c2=O)cc1 | H37Rv |  |  | MIC |  | 37 µM
CC(=O)O[C@H]1C(=O)[C@@]2(C)C([C@H](OC(=O)c3ccccc3)[C@]3(O)CC(OC(=O)C(OC(=O)CCCC(=O)NCCCN(C)C)C(NC(=O)c4ccccc4)c4ccccc4)C(C)=C1C3(C)C)C1(OC(C)=O)COC1C[C@@H]2O.Cl | H37Rv |  | BACTEC | MIC bound |  | >12.5 µg/mL
CC(C)(C)c1cnc(C(=O)/C=C/c2ccccc2Br)cn1 | H37Rv |  | absorbance | MIC |  | 6.25 µg/mL
Cc1cccc2c3c([nH]c12)-c1[nH]c(=O)ncc1CCC3 | H37Rv |  | resazurin | inhibition | 50 µg/mL | 0%
COc1ccc(-n2c(=O)oc3ccc(Br)cc3c2=O)cc1 | H37Rv |  |  | MIC |  | 74 µM
O=C(/C=C/c1ccc(Br)cc1)c1cnccn1 | H37Rv |  | absorbance | MIC |  | 12.5 µg/mL
O=C(N=Nc1c(O)[nH]c2c(Cl)cc(Cl)cc12)c1ccccc1O | H37Rv |  | BACTEC | MIC bound |  | >12.5 µg/mL
CC(=NNC(=O)c1ccc(-n2cc(-c3ccccc3)nn2)cc1O)c1ccccc1F | H37Rv |  | resazurin | MIC |  | 6.25 µg/mL
O=C1c2ccccc2-n2c1nc1cccnc1c2=O | H37Rv |  |  | MIC |  | 8 µg/mL
O=C(/C=C/c1ccc(F)cc1)c1cnccn1 | H37Rv |  | absorbance | MIC |  | 25 µg/mL
N#C/C(=C/c1ccccc1Br)n1nnc2ccccc21 | ATCC 27294 |  |  | MIC90 |  | 33.1 µM
Cc1cccc(OC(=O)c2ccc(N)cc2O)c1 | H37Rv |  |  | MIC |  | 0.005 µg/mL
C[Si](C)(C)c1cc(-c2ccc(Oc3ccc(Cl)cc3Cl)c(O)c2)no1 | mc4914 | InhA overexpression | MTT | MIC |  | 100 µg/mL
COc1cccc2c(=O)n3c(nc12)C(=O)c1ccccc1-3 | H37Rv |  |  | MIC |  | 0.06 µg/mL
O=c1ccc2ccc(OCCN3CCC(Cc4ccccc4)CC3)cc2o1 | H37Rv |  | fluorescence | inhibition | 1 µM | 1.81%
CCCCCCNC(=O)c1ccc(Oc2ccc(Cl)cc2Cl)c(O)c1 | H37Rv |  | MTT | MIC |  | >100 µg/mL
CC(=O)OCC1OC(Nn2c(=O)[nH]c3ccccc3c2=O)C(OC(C)=O)C(OC(C)=O)C1OC(C)=O | H37Rv |  | resazurin | inhibition | 6.25 µg/mL | -9%
Cc1c(Cl)c(=O)oc2cc(OCc3ccc(Br)cc3)ccc12 | H37Rv |  | fluorescence | inhibition | 1 µM | 2.18%
CC1C(=O)Nc2ccc(C(=O)CN3CCN(c4ccc([N+](=O)[O-])cc4)CC3)cc21 | H37Rv |  | visual reading / absorbance | MIC |  | 50 µg/mL
CO[C@H]1/C=C/O[C@@]2(C)Oc3c(C)c(O)c4c(O)c(c(/C=N/N5CCN(C)CC5)c(O)c4c3C2=O)NC(=O)/C(C)=C\C=C\[C@H](C)[C@H](O)[C@@H](C)[C@@H](O)[C@@H](C)[C@H](OC(C)=O)[C@@H]1C | H37Rv |  | resazurin | MIC |  | 0.39 µg/mL
CN1C(=O)N(C)C2SC(=NCc3ccccc3)NN2C1=O | H37Rv |  | resazurin | inhibition | 6.25 µg/mL | -5%
CN(C)c1ccc(C=NNC(=O)c2ccc(-n3cc(-c4ccccc4)nn3)cc2O)cc1 | H37Rv |  | resazurin | MIC |  | 1.56 µg/mL
COc1ccc2c(n1)Sc1c(N)nc(N)nc1N2 | H37Rv |  | BACTEC | inhibition | 12.5 µg/mL | 3%
CCN1C(=O)C(C)c2cc(C(=O)CN3CCN(c4noc5cc(Cl)ccc45)CC3)ccc21 | H37Rv |  | visual reading / absorbance | MIC |  | 1.56 µg/mL
COc1ccc2c(c1)OC/C(=C\c1ccc([N+](=O)[O-])o1)C2=O | H37Rv |  | BACTEC | inhibition | 12.5 µg/mL | 36%
Cc1cc(COC(=O)c2ccc(N)cc2O)ccc1C(C)C | H37Rv (p-aminosalicylate-resistant) |  |  | MIC |  | 100 µg/mL
CC1COc2c(N3CCN(C)CC3)c(F)cc3c(=O)c(C(=O)O)cn1c23 | 36 isolates |  |  | MIC90 |  | 1.2 µg/mL
CCOC(=O)c1cn(Cc2ccc(Cl)cc2)c(CC)c1-c1ccncc1 | CIP103471 |  |  | MIC |  | 4 µg/mL
O=c1oc2ccc(Br)cc2c(=O)n1-c1ccc(Cl)cc1 | H37Rv |  |  | MIC |  | 12.3 µM
COc1cccc(/C=C(\C#N)n2nnc3ccccc32)c1 | ATCC 27294 |  |  | MIC90 |  | >100 µM
COc1c(-c2ccccc2)nc2ccc(Oc3ccccc3)nn12 | H37Rv |  | BACTEC | inhibition | 12.5 µg/mL | 96%
Cc1cc(C(=O)NCc2ccc(Oc3ccc(Cl)cc3Cl)c(O)c2)no1 | mc4977 | INH resistant katG deletion | MTT | MIC |  | 5 µg/mL
CO[C@H]1/C=C/O[C@@]2(C)Oc3c(C)c(O)c4c(O)c(c(/C=N/N5CCN(C)CC5)c(O)c4c3C2=O)NC(=O)/C(C)=C\C=C\[C@H](C)[C@H](O)[C@@H](C)[C@@H](O)[C@@H](C)[C@H](OC(C)=O)[C@@H]1C | 10 strains |  |  | MIC90 |  | 0.06 µg/mL
CC(/C=N/NC(=S)SCc1ccccc1)=N\N=C(N)N | H37Rv |  | BACTEC | inhibition | 128 µg/mL | 100%
CN1C(=O)Cc2cc(C(=O)CN3CCN(c4ccc([N+](=O)[O-])cc4)CC3)ccc21 | H37Rv |  | visual reading / absorbance | MIC |  | 12.5 µg/mL
Cc1cnc2sn(-c3ccc([N+](=O)[O-])cc3)c(=O)c2c1 | H37Rv |  | resazurin | inhibition | 6.25 µg/mL | -29%
Oc1cc(CNC2CCCCC2)ccc1Oc1ccc(Cl)cc1Cl | mc4977 | INH resistant katG deletion | MTT | MIC |  | 6.25 µg/mL
Nc1ccc2nc3c(N)ccc(N)c3nc2c1 | H37Rv |  | BACTEC | MIC bound |  | >12.5 µg/mL
O=c1oc2ccc(Br)cc2c(=O)n1-c1ccccc1 | H37Rv |  |  | MIC |  | 12.3 µM
NNC(=O)c1ccncc1 | 38 strains |  |  | MIC90 |  | 25 µg/mL
O=C1c2ccccc2-n2c1nc1nccnc1c2=O | H37Rv |  |  | MIC |  | 5 µg/mL
CCn1cc(C(=O)O)c(=O)c2cc(F)c(N3CCNC(C)C3)c(F)c21 | H37Rv |  |  | MIC |  | 0.5 µg/mL
Oc1cc(Cn2cc(-c3ccccc3)nn2)ccc1Oc1ccc(Cl)cc1Cl | H37Rv |  | MTT | MIC |  | >100 µg/mL
NNC(=O)c1c[nH]cc1-c1ccncc1 | CIP103471 |  |  | MIC |  | >250 µg/mL
CC1C(=O)N(C)c2ccc(C(=O)CN3CCN(c4noc5ccccc45)CC3)cc21 | H37Rv |  | visual reading / absorbance | MIC |  | 6.25 µg/mL
NC(=S)NNc1c([N+](=O)[O-])cnn(-c2ccccc2)c1=O | H37Rv |  | resazurin | inhibition | 6.25 µg/mL | -16%
S=c1ncc2c([nH]1)-c1[nH]c3ccccc3c1CCC2 | H37Rv |  | resazurin | inhibition | 50 µg/mL | 0%
O=c1oc2ccccc2c(=O)n1-c1ccc(C2CCCCC2)cc1 | H37Rv |  |  | MIC |  | >1000 µM
O=C1c2ccccc2-n2c1nc1ccc(Cl)cc1c2=O | H37Rv |  |  | MIC |  | 0.06 µg/mL
Cc1noc(NS(=O)(=O)c2ccc(NC(=S)/N=C/c3c(O)[nH]c(=O)[nH]c3=O)cc2)c1C | H37Rv |  | BACTEC | MIC bound |  | >12.5 µg/mL
O=C1c2c(Cl)cccc2-n2c1nc1ccccc1c2=O | H37Rv |  |  | MIC |  | 0.5 µg/mL
O=C1C2C3CCC(O3)C2C(=O)N1c1nc2c(ccc3ccccc32)s1 | H37Rv |  | resazurin | inhibition | 6.25 µg/mL | -10%
O=c1cc(C(F)(F)F)c2ccc(OCc3ccc(Br)cc3)cc2o1 | H37Rv |  | fluorescence | inhibition | 50 µM | 34.96%
CCOC(=O)c1cn(S(=O)(=O)c2ccc(C)cc2)cc1-c1ccncc1 | CIP103471 |  |  | MIC |  | 4 µg/mL
Cc1c(C#N)c(=O)oc2cc(OCc3ccc(Br)cc3)ccc12 | H37Rv |  | fluorescence | inhibition | 1 µM | 4.73%
CN[C@H](CC(C)C)C(=O)N[C@H]1C(=O)N[C@@H](CC(N)=O)C(=O)N[C@H]2C(=O)N[C@H]3C(=O)N[C@H](C(=O)N[C@H](C(=O)O)c4cc(O)cc(O)c4-c4cc3ccc4O)[C@H](O)c3ccc(c(Cl)c3)Oc3cc2cc(c3O[C@@H]2O[C@H](CO)[C@@H](O)[C@H](O)[C@H]2O[C@H]2C[C@](C)(N)[C@H](O)[C@H](C)O2)Oc2ccc(cc2Cl)[C@H]1O | H37Rv |  | broth dilution | MIC |  | 100–200 µg/mL
CCCCCCCCOc1ccc2c(c1)C(=O)c1nc3ccccc3c(=O)n1-2 | H37Rv |  |  | MIC |  | 4 µg/mL
Cc1cc(-c2cc3c(cc2F)c(=O)c(C(=O)O)cn3C2CC2)cc(C)n1 | H37Rv |  |  | MBC |  | 4 µg/mL
CC(C)(C)c1cnc(C(=O)/C=C/c2ccc(Br)cc2)cn1 | H37Rv |  | absorbance | MIC |  | >50 µg/mL
Cc1cccc(C)c1NCC(=O)NN | H37Rv |  | BACTEC | MIC bound |  | >12.5 µg/mL
Cc1cn([C@H]2C[C@H](CN)[C@@H](CO)O2)c(=O)[nH]c1=O | H37Rv |  |  | MIC |  | >6.25 µg/mL
O=C(N=Nc1c(NNC(=O)c2ccc([N+](=O)[O-])cc2)c(O)c2ccccc2c1O)c1ccc([N+](=O)[O-])cc1 | H37Rv |  | BACTEC | inhibition | 12.5 µg/mL | -13%
C[C@H]1COc2c(N3CCN(C)CC3)c(F)cc3c(=O)c(C(=O)O)cn1c23 | 25 isolates |  |  | MIC90 |  | 0.39 µg/mL
Cc1c(C#N)c(=O)oc2cc(OCc3ccccc3)ccc12 | H37Rv |  | fluorescence | inhibition | 50 µM | 33.08%
CCn1cc(C(=O)O)c(=O)c2cc(Cl)c(-n3cccc3)cc21 | H37Rv |  | BACTEC | MIC bound |  | >12.5 µg/mL
COc1nc2ccc(Br)cc2cc1[C@@H](c1ccccc1)[C@@](O)(CCN(C)C)c1cccc2ccccc12 | H37Rv |  |  | MIC |  | 0.25 µg/mL
CN(C)c1ccc(-c2nnc3c(c(=O)n(C)c(=O)n3C)[n+]2[O-])cc1 | H37Rv |  | BACTEC | MIC bound |  | ≤12.5 µg/mL
CN1C(=O)Cc2cc(C(=O)CN3CCN(c4noc5cc(Cl)ccc45)CC3)ccc21 | H37Rv |  | visual reading / absorbance | MIC |  | 6.25 µg/mL
COc1cc2c(cc1Cl)[n+]([O-])c(N)c(C#N)[n+]2[O-] | H37Rv (ATCC 27294) |  | resazurin | MIC |  | 312.5 µM
N#C/C(=C\c1ccc(F)cc1F)n1nnc2ccccc21 | ATCC 27294 |  |  | MIC90 |  | >100 µM
CCCc1cnc(C(=O)/C=C/c2ccc(Cl)cc2)cn1 | H37Rv |  | absorbance | MIC |  | 25 µg/mL
c1ccc2c3c([nH]c2c1)-c1nocc1CCC3 | H37Rv |  | resazurin | inhibition | 50 µg/mL | 0%
NNC(=O)c1nc[nH]c1C(=O)NN | H37Rv |  | BACTEC | MIC |  | ≥12.5 µg/mL
CC1C(=O)N(C)c2ccc(C(=O)CN3CCN(c4noc5cc(Cl)ccc45)CC3)cc21 | H37Rv |  | visual reading / absorbance | MIC |  | 1.56 µg/mL

Repeating the first 11 entries:

structure | strain | mutations | method | measure | dose | result
Cc1cc2nc3c(nc2cc1C)C1CC(Br)CCC1N3 | H37Rv |  | BACTEC | MIC bound |  | >12.5 µg/mL
Cc1ccc2c(c1)[n+]([O-])c(N)c(C#N)[n+]2[O-] | H37Rv (ATCC 27294) |  | resazurin | MIC |  | 156.3 µM
O=C1c2cc(OC(F)(F)F)ccc2-n2c1nc1ccncc1c2=O | H37Rv |  |  | MIC |  | 0.008 µg/mL
Nc1ccc(C(=O)OCc2ccccc2)c(O)c1 | H37Rv (streptomycin-resistant) |  |  | MIC |  | 2.5 µg/mL
O=Nc1c(O)cc(Nc2cccnc2)c2ccccc12 | H37Rv |  | BACTEC | inhibition | 12.5 µg/mL | 51%
OCc1cn(Cc2ccccc2Cl)cc1-c1ccccc1 | CIP103471 |  |  | MIC |  | 8 µg/mL
CC1C(=O)N(C)c2ccc(C(=O)CN3CCN(c4noc5cccc(Cl)c45)CC3)cc21 | H37Rv |  | visual reading / absorbance | MIC |  | 6.25 µg/mL
O=C(NN=Cc1ccc(Cl)cc1)c1ccc(-n2cc(-c3ccccc3)nn2)cc1O | H37Rv |  | resazurin | MIC |  | 6.25 µg/mL
CC(C)(C)c1cnc(C(=O)/C=C/c2ccc(Cl)cc2)cn1 | H37Rv |  | absorbance | MIC |  | >50 µg/mL
Cc1ccc(-n2c(=O)oc3ccc(Br)cc3c2=O)cc1 | H37Rv |  |  | MIC |  | 37 µM
CC(=O)O[C@H]1C(=O)[C@@]2(C)C([C@H](OC(=O)c3ccccc3)[C@]3(O)CC(OC(=O)C(OC(=O)CCCC(=O)NCCCN(C)C)C(NC(=O)c4ccccc4)c4ccccc4)C(C)=C1C3(C)C)C1(OC(C)=O)COC1C[C@@H]2O.Cl | H37Rv |  | BACTEC | MIC bound |  | >12.5 µg/mL